Data from PubChem BioAssay AID687007 (The Scripps Research Institute Molecular Screening Center, 2013).
Only a part is listed here, and it is no random draw. Active and inactive are the calls of the source. Cut-off read from the data, not from the text of the source: active = inhibition above about 13%; inactive = the rest.

Experiment: VP16-driven transactivation reporter suppression – cell-based, luminescence, HEK293, counter-screen for COUP-TFII antagonist project (AID 687007)
Conditions: HEK293 Gal4-VP16 luciferase reporter, at 8.5 µM, stronger effect = higher value

Compound	inhibition
O=[N+]([O-])c1cc([N+](=O)[O-])c(Nc2ccc(Cl)cc2)c([N+](=O)[O-])c1	inactive: 2.68%
